Anti-infective test results gathered from many reports (values: NIAID ChemDB through PubChem).

All rows: toxicity to cultured cells; cell line: DAUDI; measure: CC50

Rows are shuffled and stem from different studies. Blank or dashed fields: not listed here. CCn: concentration that lowers growth or viability of the cells by n%.

SMILES	read by	result
Nc1nc2c(ncn2C=C2CC2CO)c(=O)[nH]1		>214 µM
Nc1nc2c(ncn2[C@H]2C[C@]23C[C@H]3CO)c(=O)[nH]1		>199 µM
CCCCCOc1nc(N)nc2c1ncn2/C=C1/C[C@@H]1CO		>99 µM
CCCCCCCCCCCCCCCCCCOC[C@H](COP(=O)(O)CO[C@H](CO)Cn1ccc(N)nc1=O)OCc1ccccc1		>1 µM
COc1nc(N)nc2c1ncn2C=C1CC1CO		162 µM
COC(=O)C(C)NP(=O)(OC[C@@H]1C/C1=C\n1cc(C)c(=O)[nH]c1=O)Oc1ccccc1		>100 µM
O[C@@H]1[C@H](O)[C@H](O)CO[C@H]1n1c(Br)nc2cc(Cl)c(Cl)cc21		>94 µM
COC(=O)C(Cc1c[nH]c2ccccc12)NP(=O)(O)OCC1C/C1=C\n1cnc2c(N)ncnc21		>92 µM
Nc1nc2c(ncn2COCCO)c(=O)[nH]1		>187 µM
COC(=O)[C@H](C)NP(=O)(OCC1C/C1=C/n1cnc2c(NC3CC3)nc(N)nc21)Oc1ccccc1		97 µM
COC(=O)C(C)NP(=O)(OC[C@@H]1C/C1=C\n1cc(N)c(=O)[nH]c1=O)Oc1ccccc1		>100 µM
Nc1nc(N)c2ncn(C=C3CC3CO)c2n1		>215 µM
NC[C@H]1C[C@@H](n2cnc3c(N)ncnc32)[C@H](O)[C@@H]1O		23.6 µg/mL
Nc1nc(N)c2ncn(/C=C3/CC3(CO)CO)c2n1		>191 µM
COC(=O)C(C)NP(=O)(OC[C@@H]1C/C1=C/n1cc(N)c(=O)[nH]c1=O)Oc1ccccc1		>100 µM
Nc1ncnc2c1ncn2C=C1CC1CO		>230 µM
O=C(NCc1ccc(Cl)cc1)c1cn2c(CCO)cc3cc(CN4CCOCC4)cc(c1=O)c32	MTS	>104 µM
Cc1cn(C=C2CC2(F)CO)c(=O)[nH]c1=O		>221 µM
Nc1ccn(C[C@H]2COP(=O)(O)CO2)c(=O)n1		>166 µM
Nc1ncnc2c1ncn2[C@H]1C[C@]12C[C@H]2CO		>202 µM
Nc1nc(NCc2ccccc2)c2ncn(/C=C3/C[C@@H]3CO)c2n1		>155 µM
COc1nc(N)nc2c1ncn2/C=C1/CC1(CO)CO		>108 µM
Nc1nc2c(ncn2C/C=C2\CC2P(=O)(O)O)c(=O)[nH]1		>300 µM
Nc1ncnc2c1ncn2[C@H]1C[C@@]12C[C@H]2CO		202 µM
COC(=O)[C@H](C)NP(=O)(OCC1C/C1=C\n1cnc2c(N)ncnc21)Oc1ccccc1		65 µM
Nc1ncnc2c1ncn2[C@H]1C[C@@]12C[C@@H]2CO		>216 µM
CCCCCCCCCCCCCCCCCCOCCCOP1(=O)CO[C@@H](Cn2ccc(N)nc2=O)CO1		>1 µM
Nc1ncnc2c1ncn2[C@H]1C[C@]12C[C@@H]2CO		15 µM
Nc1ccn(C[C@@H](CO)OCP(=O)(O)O)c(=O)n1		>159 µM
Nc1nc(Cl)c2ncn(/C=C3/C[C@H]3CO)c2n1		>199 µM

The last 2 rows once more:

SMILES | read by | result
Nc1ccn(C[C@@H](CO)OCP(=O)(O)O)c(=O)n1 |  | >159 µM
Nc1nc(Cl)c2ncn(/C=C3/C[C@H]3CO)c2n1 |  | >199 µM